We go through one sequence from US20070073039A1, “Peptides that inhibit viral infections” (priority 2005, published 2007).

This data set has as its system Dengue-2. Kind of data set: Dengue-2 infection of Vero cells, Intracellular FACS Assay. It is filed as cell-based. Conditions: 20 μM; Vero cells 3 days post-infection. How it is done:
Intracellular FACS Assay: Vero cells were seeded for 24 h pre-infection in 6-well plates. Cells were exposed to Dengue-2 in the presence of increasing concentrations of peptide (or DMSO as control). Viruses and peptide were washed away 2 h post-infection. Cells were taken for intracellular staining 3 days post-infection. Cells were stained with appropriate isotype control, Dengue Env, Dengue capsid or tubulin antibodies. Cells were analyzed by FACS.

As for SWLRDIWDWI [^C-10mer], the “% GATED, α-Tubulin” value turned out to be 97.30%.
